Anti-infective test results gathered from many reports (values: NIAID ChemDB through PubChem).

Shared fields: tests in culture

ECn is the concentration giving n% inhibition of infection, replication or growth. Lines come from different laboratories, so protocols vary. An empty or dashed field is not shown. Two numbers with a dash give a range or band. Percent inhibition refers to the dose given; in toxicity tests it is the harm to the cells.

compound | species | strain or isolate | endpoint | dose | cells | value
CC1S/C(=N/N=C2\C(=O)Nc3ccc([N+](=O)[O-])cc32)N(c2ccc(F)cc2)C1=O | Yellow fever virus | - | EC50 | - | VERO | >4 µg/mL
CCOc1ccc(-c2onc(N(CC)CC)c2Cc2c(N(CC)CC)noc2-c2ccc(O)cc2O)c(O)c1 | African swine fever virus | - | EC50 | - | VERO | >17 µM
O=c1cnn([C@@H]2O[C@H](COP(=O)(O)O)[C@@H](O)[C@H]2O)c(=O)[nH]1 | Japanese encephalitis virus | Nakayama | EC50 | - | VERO | 1.86 µg/mL
C[C@H]1[C@H](O)[C@@H](C)/C=C/C=C/C=C/C=C/C=C/C=C/C=C/[C@H](O[C@@H]2O[C@H](C)[C@@H](O)[C@H](N)[C@@H]2O)C[C@@H]2O[C@](O)(C[C@@H](O)C[C@@H](O)CC[C@H](O)[C@@H](O)C[C@@H](O)CC(=O)O[C@H]1C)C[C@H](O)[C@H]2C(=O)O | Histoplasma capsulatum | 20 isolates | Mean MIC | - | - | 0.56 µg/mL
CC(=O)N[C@H]1[C@H]([C@H](O)[C@H](O)CO)OC(C(=O)O)=C[C@@H]1N=C(N)N | Influenza A virus | H5N8 A/DK/IRE/83 | inhibition | 0.0083 µM | MDCK | 90%
Cc1cccc(Cn2cnc(=N)c3[nH]cnc32)c1 | Vaccinia virus | - | inhibition | 50 µg/mL | BSC-1 | 0%
COC(=O)c1ncn([C@H]2O[C@@H](COCc3ccccc3)[C@H](OCc3ccccc3)[C@@H]2OCc2ccccc2)c1C(=O)OC | Ebola virus | - | EC50 | - | - | 19 µg/mL
CC[C@@H](C(C)C)[C@@H](O)[C@H](O)[C@@H](C)[C@H]1CC[C@H]2[C@@H]3CC(=O)[C@H]4C[C@H](O)[C@H](O)C[C@]4(C)[C@H]3CC[C@]12C | Junin virus | IV4454 | EC90 | - | VERO | 12.6 µM
CC(=O)OC[C@H]1O[C@@H](n2ncc(=O)[nH]c2=S)C(OC(C)=O)C1OC(C)=O | Venezuelan equine encephalitis virus | Trinidad donkey | EC50 | - | VERO | 6.42 µg/mL
CCCn1cnc(=N)c2[nH]cnc21 | Vaccinia virus | - | inhibition | 6 µg/mL | BSC-1 | 0%
Nc1nccc2c1ncn2[C@@H]1O[C@H](CO)[C@@H](O)[C@H]1O | Newcastle disease virus | - | inhibition | 30 µM | Chick embryo cells | 10.4%
O=C1Nc2ccc([N+](=O)[O-])cc2/C1=N/N=C1/SCC(=O)N1c1ccc(Cl)cc1 | Yellow fever virus | - | EC50 | - | VERO | 1.52 µg/mL
Nc1ccn(C[C@H]2COP(=O)(O)CO2)c(=O)n1 | Variola virus | Isolate Bangladesh | EC50 | - | VERO | 25.3 µg/mL
CC[C@@H](C(C)C)[C@@H](O)[C@H](O)[C@@H](C)[C@H]1CC[C@H]2[C@@H]3CC(=O)[C@@]4(O)C[C@H](O)[C@H](O)C[C@]4(C)[C@H]3CC[C@]12C | Junin virus | IV4454 | EC50 | - | VERO | 0.2 µM
CC1(C)OC2C(O1)[C@@H](COS(=O)(=O)NC(=O)OC1O[C@H](COCc3ccccc3)[C@@H](OCc3ccccc3)[C@H](OCc3ccccc3)[C@H]1OCc1ccccc1)O[C@H]2n1ncc(=O)[nH]c1=O | Japanese encephalitis virus | Nakayama | EC50 | - | VERO | 60.4 µg/mL
CCOc1ccc(-c2cc(N3CCCCC3)no2)c(O)c1 | African swine fever virus | - | EC50 | - | VERO | >347 µM
COc1cc(O)c2c(c1)C(=O)c1c(cc3c(c1O)-c1c(cc(C)c(C(=O)N[C@H](C)C(=O)O)c1O)[C@H](O[C@@H]1O[C@H](C)[C@H](O)[C@H](O[C@@H]4OC[C@@H](O)[C@H](O)[C@H]4O)[C@H]1O)[C@H]3O)C2=O | Histoplasma capsulatum | 7 isolates | MIC | - | - | 10–20 µg/mL
O=c1cnn([C@@H]2O[C@H](CO)[C@@H](O)[C@H]2O)c(=S)[nH]1 | Venezuelan equine encephalitis virus | Trinidad donkey | EC50 | - | VERO | 1.85 µg/mL
CCCCn1cnc(=N)c2[nH]cnc21 | Vaccinia virus | - | inhibition | 50 µg/mL | BSC-1 | 0%
CN(C)c1cc(-c2ccc(O)cc2O)on1 | African swine fever virus | - | EC50 | - | VERO | >227 µM
NC(=O)c1[nH]nc([C@@H]2O[C@H](CO)[C@@H](O)[C@H]2O)c1O | Japanese encephalitis virus | Nakayama | EC50 | - | VERO | 0.65 µg/mL
NC12CC3CC(CC(C3)C1)C2 | Influenza A virus (H2N2) | A2/ADACHI | inhibition | 4.7 µg/mL | CEF | 96.2%
O=[N+]([O-])c1ccc2[nH]c(O)c(N=NC(=S)Nc3ccc(Cl)cc3)c2c1 | Yellow fever virus | - | EC50 | - | VERO | <0.8 µg/mL
Nc1ccn(C[C@@H](CO)OCP(=O)(O)O)c(=O)n1 | Variola virus | Isolate Bangladesh | EC50 | - | VERO | 17 µg/mL
CCCCN1C(=O)C(C)S/C1=N/N=C1\C(=O)Nc2ccc([N+](=O)[O-])cc21 | Yellow fever virus | - | EC50 | - | VERO | >20 µg/mL
Nc1ncnc2c1ncn2C[C@@H](CO)OCP(=O)(O)O | Variola virus | Isolate Yamada | EC50 | - | LLC-MK2 | 6.8 µg/mL
O=[N+]([O-])c1ccc2[nH]c(O)c(N=NC(=S)NC3CCCCC3)c2c1 | Yellow fever virus | - | EC50 | - | VERO | <0.8 µg/mL
CC(=O)OC[C@H]1O[C@@H](n2ncc(=S)[nH]c2=S)C(OC(C)=O)C1OC(C)=O | Japanese encephalitis virus | Nakayama | EC50 | - | VERO | 245 µg/mL
CC[C@@H](C(C)C)[C@H](O)[C@@H](O)[C@@H](C)[C@H]1CC[C@H]2[C@@H]3CC(=O)[C@H]4C[C@@H](OC(C)=O)CC[C@]4(C)[C@H]3CC[C@]12C | Junin virus | IV4454 | EC90 | - | VERO | 3.6 µM
Cc1ccc(NC(=S)N=Nc2c(O)n(CN3CCCCC3)c3ccc([N+](=O)[O-])cc23)cc1 | Yellow fever virus | - | EC50 | - | VERO | 1.59 µg/mL
CC[C@@H](C(C)C)[C@@H](O)[C@H](O)[C@@H](C)[C@H]1CC[C@H]2[C@@H]3CC(=O)[C@@]4(O)C[C@@H](Br)CC[C@]4(C)[C@H]3CC[C@]12C | Junin virus | IV4454 | EC50 | - | VERO | 0.7 µM
COc1ccc(-c2cc(N3CCCCC3)no2)c(O)c1 | African swine fever virus | - | EC50 | - | VERO | >364 µM
Cc1ccc(Cn2cnc(=N)c3[nH]cnc32)cc1 | Vaccinia virus | - | inhibition | 25 µg/mL | BSC-1 | 8%

The first 3 rows once more:

compound	species	strain or isolate	endpoint	dose	cells	value
CC1S/C(=N/N=C2\C(=O)Nc3ccc([N+](=O)[O-])cc32)N(c2ccc(F)cc2)C1=O	Yellow fever virus	-	EC50	-	VERO	>4 µg/mL
CCOc1ccc(-c2onc(N(CC)CC)c2Cc2c(N(CC)CC)noc2-c2ccc(O)cc2O)c(O)c1	African swine fever virus	-	EC50	-	VERO	>17 µM
O=c1cnn([C@@H]2O[C@H](COP(=O)(O)O)[C@@H](O)[C@H]2O)c(=O)[nH]1	Japanese encephalitis virus	Nakayama	EC50	-	VERO	1.86 µg/mL